Consider one sequence from PMC6389498, “Control of Bacterial Virulence through the Peptide Signature of the Habitat” (Cell Reports, 2019).

Chains of the proteins cited; added tags and fusions are not shown. Lines headed by an entry give the natural chain unless they say otherwise; changes in a name come on top.
UniProt P22262: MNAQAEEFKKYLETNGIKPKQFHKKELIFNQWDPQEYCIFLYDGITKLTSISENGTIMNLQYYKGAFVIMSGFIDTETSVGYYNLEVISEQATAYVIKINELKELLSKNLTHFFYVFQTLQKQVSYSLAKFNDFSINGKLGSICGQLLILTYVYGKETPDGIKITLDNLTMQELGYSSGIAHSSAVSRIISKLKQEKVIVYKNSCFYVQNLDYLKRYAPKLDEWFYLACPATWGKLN

For the series, the target named is PrfA WT (Listeria monocytogenes) (UniProt P22262). Put plainly: BLI. The conditions noted are these: no ligand; recombinant protein; residues 1-237; protein details: His-tag (pET28a); label: 5' biotin-TEG on both listed oligos (S44, S45).

For at least one entry, the source does not settle the construct or the ends of the probe. At least one verdict rests on a figure or table, not on a statement of the authors.

As to “TGTCCCTTTATCGTCGTTAACAAATGTTAATGCCTCGACA (double strand) [PplcA/Phly PrfA box (Phlybox)]”, the binding result was “binds”.
